Active and inactive are the calls of the source.
Legend:
[1] = THP-1 cell cytotoxicity, dose response, cytotoxicity control for non-replicating M. tuberculosis project (AID 489025); assay type: functional
[2] = Vero E6 cell cytotoxicity, dose response, cytotoxicity control for non-replicating M. tuberculosis project, secondary assay (AID 492998); assay type: functional, VeroE6; settings: Vero C1008
[3] = HepG2 cell cytotoxicity, dose response, cytotoxicity control for non-replicating M. tuberculosis project (AID 489018); assay type: functional; settings: Mycobacterium tuberculosis

Measured: CC50

O=C(Nc1ccc(Br)cn1)c1ccc([N+](=O)[O-])o1
active: [1] 9.19 µM | [2] 6.83 µM | [3] > 20 µM
